The experiment relates to SARS-CoV-2 (Wuhan) spike-pseudotyped virus. As to conditions: characterization of controls, Fig. S2E.

In the case of shACE2, the “EC50, entry of pseudotyped virus into HEK293T-hACE2 cells” value turned out to be 0.93 µg/mL.

Values taken from publication PMC12326988, “Synthetic host defense peptide inhibits SARS-CoV-2 replication in vitro” (Antimicrobial Agents and Chemotherapy, 2025).
